# PubChem BioAssay AID504761 – Drosophila RNAi Screening Center – 2011
# Aim: 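Fly genes whose silencing reduces dengue virus type 2 infection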 (primary screen)
# Cells: D.Mel-2 cells from Drosophila
# Knock-down reagent: long dsRNA against Drosophila genes
# Treatment: infection with dengue virus type 2; dose and infection time not stated
# Measurement: 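Per well on two replicate plates, imaging gave the percent of cells positive for viral envelope protein, ranked by infection, and a nuclear count of cells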
# Reading the numbers: infection score: higher = more virus-infected cells; cell count: higher = more cells in the well
# Rule for the call: 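Very low infection ranking in both replicate wells (chance probability at most 0.065), then a retest showing infection dropped 1.5-fold or more at p below 0.05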
# Calls: active = confirmed: knock-down lowers infection; inactive = not picked or not confirmed
# In all, the deposit lists about 22,000 reagents; shown is a random part of those with a known target gene and a result. Over the whole deposit, 116 (0.52%) are marked active. 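Calls depend on retest data that are not deposited; infection was ranked per plate without normalising between plates; the unit of the infection score is not given.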 Raw values are not corrected between plates. Entries without a mark were called inactive. A plus sign joins genes that one reagent is predicted to hit. Not stated in the record: the amount of reagent, the time to read-out.
The opening 5 entries, to show the layout:
"infection score, replicate 1","infection score, replicate 2","cell count, replicate 1","cell count, replicate 2",gene knocked down,DRSC id
0.87,1.08,5964,6481,TwdlT (TweedleT),DRSC21540
30.2,47.5,6228,5215,Pof (Painting of fourth),DRSC04405
8.59,12.3,6435,6381,grn (grain),DRSC16961
2.02,2.09,6181,6024,grn (grain),DRSC25829
2.41,3.3,6277,6278,Rph (Rabphilin),DRSC17790

Results, from the start:
"infection score, replicate 1","infection score, replicate 2","cell count, replicate 1","cell count, replicate 2",gene knocked down,DRSC id
0.87,1.08,5964,6481,TwdlT (TweedleT),DRSC21540
30.2,47.5,6228,5215,Pof (Painting of fourth),DRSC04405
8.59,12.3,6435,6381,grn (grain),DRSC16961
2.02,2.09,6181,6024,grn (grain),DRSC25829
2.41,3.3,6277,6278,Rph (Rabphilin),DRSC17790
1,1.17,5881,5653,Rph (Rabphilin),DRSC23887
3.08,5.21,6013,6216,CG8641,DRSC11028
1.87,4.26,6859,5515,CG14052,DRSC17907
2.43,5.15,6667,815,CG14052,DRSC18192
1.69,5.06,6046,5971,CG14052,DRSC25215
33.1,5.76,5463,6753,CG17290,DRSC06662
6.49,4.03,6151,6326,CG17290,DRSC27119
13.8,8.46,5977,6573,Odj (Oddjob),DRSC16234
4.85,7.16,6579,6553,Mal-B1 (Maltase B1),DRSC02416
9.56,5.37,5700,5776,Mal-B1 (Maltase B1),DRSC25542
2.05,0.03,6039,6473,Hs3st-B (Heparan sulfate 3-O sulfotransferase-B),DRSC20067
28.6,13.3,5826,6395,"ATPsynF (ATP synthase, subunit F)",DRSC04482
6.41,2.23,5917,6234,CG14196,DRSC19551
10.9,4.3,6017,5999,CG14196,DRSC26030
2.76,2.84,6460,6364,AANATL6 (Arylalkylamine N-acetyltransferase-like 6),DRSC06773
9.82,19.6,5113,3500,CG8929,DRSC07298
2.94,6.05,6215,6494,CG8929,DRSC22847
11.3,9.07,6714,6702,Ir52b (Ionotropic receptor 52b),DRSC06263
16.5,5.93,4923,6461,vari (varicose),DRSC03202
11.8,4.02,6305,6795,rad (retired record),DRSC19687
1.55,1.84,6119,6266,rad (retired record),DRSC22865
4.1,22.2,6439,5359,CG30094,DRSC22268
2.62,10.5,6594,6362,CG30094,DRSC27064
3.55,1.17,6416,6386,Toll-4,DRSC03458
7.19,12.3,5772,5853,Cngl (Cyclic nucleotide-gated ion channel-like),DRSC20318
2.19,1.34,5467,5882,Cngl (Cyclic nucleotide-gated ion channel-like),DRSC23577
1.21,1.65,5698,5511,Ubr1 (Ubr1 ubiquitin ligase),DRSC20148
1.27,0.66,6361,6247,Gr39b (Gustatory receptor 39b),DRSC01848
4,6.13,5796,5905,Gr39b (Gustatory receptor 39b),DRSC26464
2.4,3.42,6617,6427,CG14570,DRSC11731
6.71,10.9,6140,6059,CG14570,DRSC24676
16.1,9.44,5405,4999,CG15252,DRSC17981
27.8,,6088,413,CG15252,DRSC29645
3.84,9.65,6098,6662,CG13589,DRSC04225
8.63,20.9,6395,6452,CG13589,DRSC26885
8.72,7.33,5954,6790,Vha16-1 (Vacuolar H[+] ATPase 16kD subunit 1),DRSC05020
1.53,0.45,5930,6471,sp3 (spermathreecae),DRSC16354
5.31,4.59,5936,6582,Capa (Capability),DRSC15058
12,8.53,5410,6718,Mkp3 (Mitogen-activated protein kinase phosphatase 3),DRSC10084
4.06,24.3,5373,4723,Mkp3 (Mitogen-activated protein kinase phosphatase 3),DRSC10085
7.01,13.9,1896,4193,Cdc6 (Cell division cycle 6),DRSC10563
9.91,21.1,6369,4698,Blm + CG14721,DRSC14943
3.48,3.41,689,6226,CG6763,DRSC16110
6.44,7.46,6394,6392,CG6763,DRSC24299
4.16,3.78,5942,6171,unc-4,DRSC20381
1.71,8.13,6554,3838,unc-4,DRSC22074
4.98,1.62,6062,6353,unc-4,DRSC25459
1.59,1.61,6475,6519,DZIP1,DRSC14620
15.2,1.72,6160,6354,Sirt1 (Sirtuin 1),DRSC03435
2.41,3.21,6515,6051,CG9372,DRSC11068
2.8,9.29,6243,5682,Mip (Myoinhibiting peptide precursor),DRSC23429
2.5,30,6276,5132,Cpr65Av (Cuticular protein 65Av),DRSC09727
8.3,3.94,5951,6160,Cpr65Av (Cuticular protein 65Av),DRSC26499
1.4,0.82,6568,6737,p38b (p38b MAP kinase),DRSC03586
3.43,11.8,6417,5533,Eglp2 (Entomoglyceroporin 2),DRSC04294
2.27,6.18,6080,6098,CG42594,DRSC18408
0.72,10.2,7098,6740,CG42594,DRSC22978
9.79,3.41,5998,5901,CG42594,DRSC25767
8.04,2.69,6120,6138,CG42594,DRSC26285
,20,394,5377,CG42594,DRSC28979
14.2,11.3,5620,6093,CG12674,DRSC00348
2.1,7.97,5628,5005,nonA (no on or off transient A),DRSC20357
7.31,3.86,6073,6326,nonA (no on or off transient A),DRSC27455
9.75,3.06,5949,6081,etaTry (etaTrypsin),DRSC07613
15.9,20.3,5551,5930,etaTry (etaTrypsin),DRSC28998
10.8,9.97,6048,6510,rgr (regular),DRSC06487
17.3,12.5,6277,6763,rgr (regular),DRSC07229
3.65,8.82,5779,6879,CG31021,DRSC22319
2.53,7.13,4815,4724,Polr3A (RNA polymerase III subunit A),DRSC19766
